{"source": "paper PMC4388271", "about": "(Acta Crystallographica Section D: Biological Crystallography, 2015)", "biological_target": "TesB from Yersinia pestis with the Glu18-to-Arg18 mutation (Yersinia pestis)", "test": "SEC; size-exclusion column with a standard curve; 50 mM Tris pH 8.0, 125 mM NaCl", "data": [{"substance": "TesB from Yersinia pestis with the Glu18-to-Arg18 mutation (enzyme)", "values": [{"measurement": "stoichiometry N", "value": 2}]}]}
